Results of unrelated studies side by side (data: NIAID ChemDB).

Shared fields: growth or infection tests; organism: HIV-1; cell line: MT-4; read by: MTT; endpoint: EC50

Blank or dashed fields: not listed here. Neighbouring rows are from separate reports. ECn is the concentration giving n% inhibition of infection, replication or growth.

structure,changes,strain or isolate,value
CCc1c(Cc2cc(C)cc(C)c2)n(COCc2cn(-c3cccnc3)nn2)c(=O)[nH]c1=O,WT,IIIB,0.008 µM
Cc1cc(/C=C/C#N)cc(C)c1Oc1nc(NC2CCN(Cc3ccc(F)cc3)CC2)nc2ccsc12,,RES056,0.125 µM
CCc1c(Cc2ccccc2C)n(COCC#Cc2ccc(NC(=O)CBr)cc2)c(=O)[nH]c1=O,WT,IIIB,0.07 µM
Cc1cc(/C=C/C#N)cc(C)c1Oc1nc(NC2CCN(Cc3cccc(C#N)c3)CC2)nc2ccsc12,NNRTI-resistant (RT K103N),IIIB,0.00602 µM
CCCn1c(C)c(C)c2c(-c3ccc(Cl)cc3)c(C(OC(C)(C)C)C(=O)O)c(C)nc21,,IIIB,0.0293 µM
CCc1c(Cc2cc(C)cc(C)c2)n(COCC#Cc2ccccc2[N+](=O)[O-])c(=O)[nH]c1=O,WT,IIIB,0.06 µM
Cc1nc2c(c(C)c(C)n2CC2CC2(F)F)c(-c2ccc(Cl)cc2)c1[C@H](OC(C)(C)C)C(=O)O,,IIIB,0.0265 µM
Cc1cc(-c2ccc(C#N)cc2)cc(C)c1Oc1ccnc(S(=O)(=O)CC(=O)Nc2ccc(Br)cc2)n1,F227L V106A,IIIB,4.301 µM
CCOC(=O)c1ccc(CN2CCC(Nc3nc(Oc4c(C)cc(C#N)cc4C)c4ccsc4n3)CC2)cc1,NNRTI-resistant (RT K103N),IIIB,0.369 µM
CCc1c(Cc2cc(C)cc(C)c2)n(COCC#CC#CCO[Si](c2ccccc2)(c2ccccc2)C(C)(C)C)c(=O)[nH]c1=O,EFV-resistant (K103R V179D P225H),IIIB,>76 µM
Cc1cc(C#N)cc(C)c1Oc1nc(NC2CCN(Cc3ccc(S(N)(=O)=O)cc3)CC2)nc2sccc12,NNRTI-resistant (RT K103N),IIIB,0.00328 µM
CCc1c(Cc2ccccc2C)n(COCC#Cc2ccc(NC(=O)C(F)(F)F)cc2)c(=O)[nH]c1=O,WT,IIIB,0.09 µM
Cc1nc2c(c(C)c(C)n2Cc2ccoc2)c(-c2ccc(Cl)cc2)c1[C@H](OC(C)(C)C)C(=O)O,,IIIB,0.02616 µM
CCOCn1c(Cc2cc(OC)cc(OC)c2)c(CC)c(=O)[nH]c1=O,K103N + Y181C,A17,>100 µM
Cc1cc(C#N)cc(C)c1Oc1ccnc(S(=O)(=O)CC(=O)Nc2ccc(C#N)cc2)n1,,RES056,0.425 µM
CCc1c(Cc2cc(C)cc(C)c2)n(COCC#Cc2cccc(C=O)c2)c(=O)[nH]c1=O,EFV-resistant (K103R V179D P225H),IIIB,13 µM
Cc1nc2c(c(C)c(C)n2CCC(C)C)c(-c2ccc(Cl)cc2)c1C(OC(C)(C)C)C(=O)O,,IIIB,0.153 µM
N#Cc1ccc(Nc2nc(Oc3ccc(-c4ccc(C#N)cc4)c(F)c3F)c3sccc3n2)cc1,F227L V106A,IIIB,0.6028 µM
CCc1c(Cc2ccccc2)n(COCCOc2ccccc2)c(=O)[nH]c1=O,Efavirenz-resistant (K103R + V179D + P225H),IIIB,>32 µM
Cc1cc(-c2ccc(C#N)cc2)cc(C)c1Oc1ccnc(S(=O)(=O)CC(=O)Nc2ccc(Cl)cc2)n1,Y188L,IIIB,0.938 µM
Cc1cc(C#N)cc(C)c1Oc1nc(NC2CCN(Cc3ccc(S(N)(=O)=O)cc3)CC2C(=O)O)nc2ccsc12,NNRTI-resistant (RT Y181C),IIIB,3.3 µM
O=C1Nc2ccc(Cl)cc2[C@@](C#CC2CC2)(C(F)(F)F)O1,L100I,IIIB,0.0444 µM
CCc1c(Cc2cc(OC)cc(OC)c2)n(COCCOc2ccccc2)c(=O)[nH]c1=O,,IIIB,0.35 µM
CCc1c(Cc2cc(C)cc(C)c2)n(COCC#Cc2ccc([N+](=O)[O-])cc2)c(=O)[nH]c1=O,Y181C,IIIB,>7 µM
CCn1c(C)c(C)c2c(-c3ccc(OC)cc3)c(C(OC(C)(C)C)C(=O)O)c(C)nc21,,IIIB,0.03298 µM
Cc1cc(-c2ccc(C#N)cc2)cc(C)c1Oc1ccnc(S(=O)(=O)C(C)C(=O)Nc2ccc(C#N)cc2)n1,,RES056,1.433 µM
N#Cc1ccc(Nc2nc(Oc3ccc(-c4ccc(C#N)cc4)c([N+](=O)[O-])c3)c3sccc3n2)cc1,,IIIB,0.0877 µM
Cc1cc(-c2ccc(C#N)cc2)cc(C)c1Oc1ccnc(S(=O)(=O)CC(=O)Nc2ccc(F)cc2)n1,L100I,IIIB,0.177 µM
Cc1cc(C)cc(Cc2c(C(C)C)c(=O)[nH]c(=O)n2COCCOc2ccccc2)c1,Efavirenz-resistant (K103R + V179D + P225H),IIIB,2.3 µM
Cc1nc2c(c(C)c(C)n2Cc2ccn(C)n2)c(-c2ccc(Cl)cc2)c1[C@H](OC(C)(C)C)C(=O)O,,IIIB,0.008 µM
Cc1cc(/C=C/C#N)cc(C)c1Oc1nc(NC2CCN(Cc3cccc(Br)c3)CC2)nc2ccsc12,NNRTI-resistant (RT F227L V106A),IIIB,0.0936 µM
COc1cc(Oc2nc(Nc3ccc(C#N)cc3)nc3ccsc23)ccc1-c1ccc(C#N)cc1,,IIIB,0.0253 µM

For reference, 2 entries again:

structure	changes	strain or isolate	value
CCc1c(Cc2cc(C)cc(C)c2)n(COCC#CC#CCO[Si](c2ccccc2)(c2ccccc2)C(C)(C)C)c(=O)[nH]c1=O	EFV-resistant (K103R V179D P225H)	IIIB	>76 µM
Cc1cc(/C=C/C#N)cc(C)c1Oc1nc(NC2CCN(Cc3cccc(Br)c3)CC2)nc2ccsc12	NNRTI-resistant (RT F227L V106A)	IIIB	0.0936 µM